Legend:
[1] = system: BcGR; assay: Effect of compounds on BcGR oligomeric state (size exclusion chromatography, cross-linking, BN-PAGE); parameters: species or system Burkholderia cenocepacia J2315; conditions: for oligomeric state of BcGR: incubated with inhibitor in the absence of substrate; for molecular species of additional elution peak: with substrate D-Glu and inhibitor, gel filtration
[2] = system: BSA and lysozyme; assay: Size exclusion chromatography of control proteins with compounds (unspecific cross-linking check); conditions: 0.1 mM compound, with or without 10 mM D-Glu

| Substance | oligomeric state of BcGR [1] | molecular species of additional elution peak [1] | oligomeric state of control proteins [2] |
| --- | --- | --- | --- |
| bis(2,4-bis(trichloromethyl)-1,3,5-triazapentadienato)-zinc(II) complex [(1)] | entirely in monomeric form | approximately 70 kDa | eluted as monomers |
| tris(2,4-bis(trichloromethyl)-1,3,5-triazapentadienate)-Mn(III) complex [(2)] | entirely in monomeric form | approximately 70 kDa | eluted as monomers |

— article PMC5127577, “Biochemical Characterization of Glutamate Racemase—A New Candidate Drug Target against Burkholderia cenocepacia Infections” (PLoS ONE, 2016)
